The results in this text go back to publication PMC7998855 (Toxins, 2021).

Read-outs that look alike come from different tables or passages of the source.

This data set relates to differentiated Caco-2 (C2BBe1) cells.
Setting [1] is: 1 µg/mL DON + 10 ng/mL CER, 24 h, mean ± SD, 3 biological replicates.
[2] abbreviates: 1 µg/mL DON, 24 h, mean ± SD, 3 biological replicates.
The mark [3] stands for this setting: incubation with 10 µg/mL DON + 100 ng/mL CER, 24 h, transwell, LC-MS/MS, mean ± SD, 3 biological replicates.
Setting [4] is: incubation with 10 µg/mL DON alone, 24 h, transwell, LC-MS/MS, mean ± SD, 3 biological replicates.
Where [5] appears, read: two highest test concentrations, 24 h, overall.

DON-15-glucuronide: the “Detection of DON-15-glucuronide as DON metabolite” value (no analytical standard, at the expected retention time) is “no peaks were observed”.
Regarding DON-15-sulfate, for the setting “all samples (media, lysates), 24 h, LOD 0.2 ng/mL incubation medium, 0.03 ng/mL lysate measurement solution”, the “Detection of DON-15-sulfate as DON metabolite” value is recorded as “not detected in any sample”.
DON-3-glucuronide: the “Detection of DON-3-glucuronide as DON metabolite” value (all samples (media, lysates), 24 h, LOD 0.7 ng/mL incubation medium, 0.1 ng/mL lysate measurement solution) is “not detected in any sample”.
Turning to DON-3-sulfate, the “Ratio of DON-3-S to DON, basolateral medium” value by setting is: under setting [1], 0.76 ± 0.02%; under setting [2], 0.94 ± 0.10%. For the same substance, the “Ratio of DON-3-S to DON, cell lysates” value is reported as 30.2 ± 1.4% under setting [1], 22.4 ± 1.9% under setting [2] and 20-30% under setting [5]. In addition, the “DON-3-S concentration in basolateral compared to apical medium” value (24 h, transwell, LC-MS/MS) is reported as “approximately 6 times”. Besides, the “DON-3-sulfate concentration in cell lysates” value is on record as 0.038 ± 0.005 pg/µg cell protein (incubation with 1 µg/mL DON + 10 ng/mL CER, 24 h, LC-MS/MS, mean ± SD, 3 biological replicates); 0.028 ± 0.004 pg/µg cell protein (incubation with 1 µg/mL DON alone, 24 h, LC-MS/MS, mean ± SD, 3 biological replicates); 0.33 ± 0.06 pg/µg cell protein (incubation with 10 µg/mL DON + 100 ng/mL CER, 24 h, LC-MS/MS, mean ± SD, 3 biological replicates); 0.25 ± 0.05 pg/µg cell protein (incubation with 10 µg/mL DON alone, 24 h, LC-MS/MS, mean ± SD, 3 biological replicates). For the same substance, the “DON-3-sulfate concentration in basolateral medium” value by setting is: (incubation with 1 µg/mL DON + 10 ng/mL CER, 24 h, transwell, LC-MS/MS, mean ± SD, 3 biological replicates) 0.6 ± 0.1 ng/mL; (incubation with 1 µg/mL DON alone, 24 h, transwell, LC-MS/MS, mean ± SD, 3 biological replicates) 0.9 ± 0.1 ng/mL; under setting [3], 5.4 ± 0.6 ng/mL medium; under setting [4], 6.7 ± 0.8 ng/mL medium. The “DON-3-sulfate concentration in apical medium” value is recorded as 0.9 ± 0.2 ng/mL under setting [3] and 1.1 ± 0.2 ng/mL under setting [4]. In addition, the “Ratio of DON-3-S in relation to DON, basolateral medium” value under setting [5] was “roughly 0.9%”.
